Results on one substance are retold here after patent US20100004187A1 (priority 2008, published 2010).

One data set has as its system Francisella philomiragia. The settings on record: CC50 BHK cells over average of the two IC50s.
In data set [1] the test system is Francisella tularensis subspecies Novicida. The settings on record: CC50 BHK cells over average of the two IC50s.

For the substance hexamminecobalt (III) chloride, the in vitro selectivity ratio CC50/IC50 came out at 88 with Francisella philomiragia and 145 in data set [1].
